Assay results as given in paper PMC6952414 (Nature Communications, 2020).
Positions of bridges follow the written chain, without caps; N, C: chain ends. Non-standard residues stand in square brackets, D forms with d. Chains are numbered I, II in the order given. No end group written: not given here. Ahx = NCCCCCC(=O)O

Test system: A/Tokyo/UTHP013/2016 (H1N1 pdm)
Assay type: cell-based, Influenza A virus

Substance: I: MARRPVNHFA[Ahx]KK-NH2 / II: MARRPVNHFA[Ahx]K / III: MARRPVNHFA[Ahx] / IV: MARRPVNHFA[Ahx] (amide I:12-IV:C, I:13-II:C, II:12-III:C) [PVF-tet]
- cytopathicity of the strain in MDCK cells (in words): reduced
